Data reported in the supplement of paper PMC9931576.
Human monoclonal antibodies against the spike receptor-binding domain (heavy:light variable regions). IC50 against pseudoviruses bearing the spike of naturally observed variants; lower = stronger; >10 µg/ml means not reached at the top dose. No active / inactive call. The stated detection limit is 0.0005 µg/ml; values near or below 0.001 µg/ml lie at the floor of the assay.

Columns and labels:
Assay in all cases: pseudovirus neutralization IC50; higher = weaker neutralization
[1] = target: SARS-CoV-2 Omicron BA.1 spike pseudovirus
Experimental: (§1)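 Single-round VSV luciferase pseudovirus mixed with antibody dilutions for 1 h and put on Huh-7 cells for about a day; IC50 from the dose curve.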

[2] = target: SARS-CoV-2 Omicron BA.2 spike pseudovirus
Experimental: as §1

[3] = target: SARS-CoV-2 Omicron BA.2.75 spike pseudovirus
Experimental: as §1

[4] = target: SARS-CoV-2 Omicron BA.5 spike pseudovirus
Experimental: as §1

[5] = target: SARS-CoV-2 Omicron BQ.1.1 spike pseudovirus
Experimental: as §1

[6] = target: SARS-CoV-2 Omicron XBB spike pseudovirus
Experimental: as §1

[7] = target: SARS-CoV-2 early D614G spike pseudovirus
Experimental: as §1

| Binder | pseudovirus neutralization IC50 [1] | pseudovirus neutralization IC50 [2] | pseudovirus neutralization IC50 [3] | pseudovirus neutralization IC50 [4] | pseudovirus neutralization IC50 [5] | pseudovirus neutralization IC50 [6] | pseudovirus neutralization IC50 [7] |
| --- | --- | --- | --- | --- | --- | --- | --- |
| BD57-0261 (protein) chain 1: QVQLVQSGAEVKKPGASVKVSCKASGYTFSNYYIHWVRQAPGQGLEWMGIINPRGGSTDYAQKFQGRLTMTTDTSTSTVHMELGSLRSEDTAVFFCARAHSVTVAGVDYWGQGTLVTVSS chain 2: QTVVTQEPSLTVSPGGTITLTCASRTGVVTSEYFPNWFQQKPGQAPRALIYSTGNKHSWTPARFSGSLLGGKAALTLSGALPEDEADYYCLLYSGNSWVFGGGTTLTVL | 0.112 µg/mL | 0.204 µg/mL | 0.0329 µg/mL | > 10 µg/mL | > 10 µg/mL | > 10 µg/mL | 0.00365 µg/mL |
| BD57-0263 (protein) chain 1: QVHLVESGGGVVQPGRSLRLSCAASGFTFSNYAMHWVRQAPGKGLEWVALTSYDGSNTFYADSVKGRFTISRDNSKNTLYLQMNSLRAEDTAVYYCANENEGYHSWSGLGHFDYWGQGTLVTVSS chain 2: DIQMTQSPSSLSASVGDRVTITCRASRTIITYLNWYQQKPGKPPNLLIYAASTLQTGVPARFSGSGSGTEFTLTISSLQPEDFATYYCQQSFNTPPTFGQGTKVEVK | 0.00117 µg/mL | 0.00273 µg/mL | 0.00244 µg/mL | 0.0211 µg/mL | 0.0578 µg/mL | > 10 µg/mL | 0.00383 µg/mL |
| BD57-0266 (protein) chain 1: QVQLQQWGAGLLRPSETLSLTCAVYGGSFSGFYWSWIRQSPGKGLEWIGEITHSGTTEYNPSLKSRVTISIETSKNQFSLKLTSVTPADTALYYCARSRWGWLLRGAFDIWGQGTLFTVSS chain 2: DIQMTQSPSSLSASVGDRVTITCRASQDISNFLAWFQQKPGKAPKSLIYAASSLQSGVPSKFSGSGSGTDFTLTISSLQPEDFATYYCLQYNDYPYTFGQGTNLEIK | 0.658 µg/mL | 0.786 µg/mL | 0.117 µg/mL | > 10 µg/mL | > 10 µg/mL | > 10 µg/mL | 0.0167 µg/mL |
| BD57-0281 (protein) chain 1: QVTLRESGPALVKPTQTLTLTCTFSGFSLSTHGMCVSWIRLPPGKALEWLARIDWEDDKYYSTSLKTRLTISKDTSKNQVVLTMTNMDPVDTGRYYCARSPSSGQYWPVLIDYWGQGTLVTVSS chain 2: QSALTQPASVSGSPGQSITISCTGTSSDVGNYNLVSWYQQHPGKAPKLIIYEGSKRPSGVSNRFSGSKSGNTASLTISGLQAEDEADYYCCSFAGTSTVFVFGTGTKVTAL | > 10 µg/mL | 0.017 µg/mL | > 10 µg/mL | 0.0151 µg/mL | > 10 µg/mL | > 10 µg/mL | 0.000832 µg/mL |
| BD57-0286 (protein) chain 1: QVQLEQSRAEVKKPGSSVKVSCKASGNTFSSYAISWVRQAPGQGLEWMGGIIPKFGAAHYAQKFQGRVSITADESTSTAYIELRSLRSEDTAVYFCARALAPYCIGAKCFVLRHWGQGTLVTVSA chain 2: DVMMTQTPLSLSVTPGQPASISCKSSESLLHSDGQTYLYWFLQKPGQSPQLLIYEVSSRFSGVPDRFSGSGSGTDFTLEISRVEAEDVGIYYCMQGMHLPLTFGGGTRVEIK | > 10 µg/mL | > 10 µg/mL | > 10 µg/mL | > 10 µg/mL | > 10 µg/mL | > 10 µg/mL | > 10 µg/mL |
| BD57-0287 (protein) chain 1: QLVQSGAAVKKPGASVKVSCKTSGYIFTDHYIHWVRQAPGQGLEWMGWINPNSGATNYTRKFQGRVTMTRDRSISTAYMEVSGLTSDDTAVYYCARDYNKYVVYYYMDVWGKGTTVTVSS chain 2: QSALTQPPSASGSPGQSVTISCTGTSSDVGGYHYVSWYQQHPGEAPKLIIYEVTTRPSGVPDRFSGSKSGNTASLTVSGLQAEDEADYFCSSYAGNNNLVFGGGTKLTVL | > 10 µg/mL | > 10 µg/mL | > 10 µg/mL | > 10 µg/mL | > 10 µg/mL | > 10 µg/mL | 0.00124 µg/mL |
